Results of unrelated studies side by side (data: NIAID ChemDB).

Shared fields: growth or infection tests; species: Candida albicans

Two numbers with a dash give a range or band.

| compound | changes | measure | read by | strain | result |
|---|---|---|---|---|---|
| COc1c2ccoc2c(OC)c2oc(=O)ccc12 |  | MIC |  | ATCC 14053 | 500 µg/mL |
| Cc1c(N2CCc3ccccc3C2)c(F)cn2c(=O)c(C(=O)O)cc(C3CC3)c12 |  | MIC |  | CCH442 | >100 µg/mL |
| Clc1ccc(COC(Cn2ccnc2)c2ccc(Cl)cc2Cl)c(Cl)c1 |  | MFC100 | broth dilution | ATCC 40277 | 32 µg/mL |
| CC(C)(C)C1CCC(CN2C3=NC[C@H](CC4CCCCC4)N3C[C@H]2C2CCCCC2)CC1 |  | EC50 |  | ATCC 10231 | 9.2 µg/mL |
| O=c1[nH]sc2cccc(F)c12 |  | MIC |  | ATCC 2091 | 20 µg/mL |
| Cc1c(N2C[C@@H]3C[C@H]2CN3)c(F)cn2c(=O)c(C(=O)O)cc(C3CC3)c12 |  | MIC |  | CCH442 | >100 µg/mL |
| C=C(Cl)/C=C/[C@H](O)CC(=C)C[C@H]1OC2[C@@H](O)[C@]3(O)C[C@@H](O)[C@H](C)[C@H](CCC/C=C\[C@@H]4C[C@@H](O)C[C@]5(C[C@H](OC)CC(CC(=O)[C@@H](C)[C@H](OC(C)=O)[C@@H](C)C(=C)C[C@@H]6C[C@@](C)(O)C[C@]7(C[C@H](OC(C)=O)CC(CC(=O)O[C@@H]([C@@H]1O)[C@H]2C)O7)O6)O5)O4)O3 |  | MIC |  | ATCC 32354 | 3.12 µg/mL |
| Cc1c(N2CCC(N(C)C)CC2)c(F)cn2c(=O)c(C(=O)O)cc(C3CC3)c12 |  | MIC |  | CCH442 | >100 µg/mL |
| COc1cc(C[C@H](C)[C@H](C)Cc2ccc(O)c(O)c2)ccc1O |  | MIC50 | broth dilution | CCC 126-2000 | 31.25 µg/mL |
| CCCCNC(=O)c1cc(C(F)(F)F)ccc1SSc1ccc(C(F)(F)F)cc1C(=O)NCCCC |  | MIC |  | ATCC 2091 | 40 µg/mL |
| CC(=O)N1CCN(c2ccc(OC[C@H]3CO[C@](Cn4ccnc4)(c4ccc(Cl)cc4Cl)O3)cc2)CC1 |  | MIC |  | Isogenic mutant isolate 1 | 0.004 µg/mL |
| CN(C/C=C/C#CC(C)(C)C)Cc1cccc2ccccc12 |  | MIC90 |  | CI_3 | 4 µg/mL |
| O=C(Cc1ccccc1O)NCCc1ccc2c(c1)OCO2 | Fluconazole-resistant | MIC80 | broth dilution | Clinical isolate | >64 µg/mL |
| CCN1C2=NC[C@H](Cc3ccccc3)N2C[C@@H]1CC1CCCCC1 |  | MIC |  | ATCC 10231 | >64 µg/mL |
| CCCCNC(=O)c1cc(F)ccc1SSc1ccc(F)cc1C(=O)NCCCC |  | MIC |  | ATCC 2091 | 20 µg/mL |
| CN1CCC2=C(CCCC2CCc2ccccc2Cl)C1 |  | MIC |  | 2381E | 16 µg/mL |
| COc1ccc(C(=O)/C=C/c2ccc3ccccc3c2)c(OC)c1 |  | MIC |  | ATCC 10231 | >50 µg/mL |
| CN1CCC2=C(CCCC2CCc2ccc(Cl)cc2)C1 |  | MIC |  | 1208E | 4 µg/mL |
| CC(C)C[C@@H]1CN2C(=NC[C@@H]2C2CCCCC2)N1CCC12CC3CC(CC(C3)C1)C2 |  | EC50 |  | ATCC 10231 | 26.6 µg/mL |
| Cc1cnccc1CCCc1ccccc1 |  | MIC |  | 2402E | 16 µg/mL |
| Cc1ccc(/C=C/C(=O)c2ccccc2)cc1 |  | MIC |  | ATCC 10231 | >50 µg/mL |
| C[C@@H](c1ncncc1F)[C@](O)(Cn1cncn1)c1ccc(F)cc1F |  | MIC50 |  | 4054 strains (fluconazole-susceptible) | 0.007 µg/mL |
| Cc1c(SCCN)c(F)cn2c(=O)c(C(=O)O)cc(C3CC3)c12.O=C(O)C(F)(F)F |  | MIC |  | CCH442 | >100 µg/mL |
| CCN1C2=NC[C@H](C3CCCCC3)N2C[C@@H]1Cc1ccccc1 |  | MIC |  | ATCC 10231 | >64 µg/mL |
| C[C@H]1[C@H](O)[C@@H](C)/C=C/C=C/C=C/C=C/C=C/C=C/C=C/[C@H](O[C@@H]2O[C@H](C)[C@@H](O)[C@H](N)[C@@H]2O)C[C@@H]2O[C@](O)(C[C@@H](O)C[C@@H](O)CC[C@H](O)[C@@H](O)C[C@@H](O)CC(=O)O[C@H]1C)C[C@H](O)[C@H]2C(=O)O |  | MIC |  | ATCC 90028 | 0.0125 µg/mL |
| COc1ccc(Cc2c3[n+](cc4c(OC)c(OC)ccc24)CCc2cc4c(cc2-3)OCO4)cc1.[Br-] | Fluconazole-resistant | MIC80 | broth dilution | Clinical isolate | 32 µg/mL |
| CCCCn1sc2cc(C(F)(F)F)ccc2c1=O |  | MIC |  | ATCC 2091 | 7.5 µg/mL |
| Cc1c(N2CCC(c3ccccn3)C2)c(F)cn2c(=O)c(C(=O)O)cc(C3CC3)c12.Cl |  | MIC |  | CCH442 | >100 µg/mL |
| C[C@@H]1[C@H](O)[C@@H](C)/C=C/C=C/CC/C=C/C=C/C=C/C=C/C(O[C@H]2O[C@H](C)[C@@H](O)[C@H](N)[C@@H]2O)CC2O[C@](O)(CC(O)C(O)CCC(O)CC(O)CC(O)CC(=O)O[C@H]1C)CC(O)C2C(=O)O |  | MIC |  | MTCC 183 | 150 µg/mL |
| COc1cc2oc(=O)ccc2c2c1C=CC(C)(C)O2 |  | MIC |  | ATCC 14053 | 500 µg/mL |
| C1CCC([C@@H]2CN3C(=NC[C@H]3C3CCCCC3)N2CCC23CC4CC(CC(C4)C2)C3)CC1 |  | EC50 |  | ATCC 10231 | 23.1 µg/mL |
| c1ccc(CC2CCCc3cnccc32)cc1 |  | MIC |  | 2005E | 16 µg/mL |
| c1ccc(C[C@H]2CN=C3N(CCC45CC6CC(CC(C6)C4)C5)[C@@H](Cc4ccccc4)CN32)cc1 |  | MIC |  | ATCC 10231 | 32–64 µg/mL |
| C[C@H](CCC(=O)NCCNCCNC(=O)CC[C@@H](C)[C@H]1CCC2C3CCC4C[C@H](O)CC[C@]4(C)C3C[C@H](C)[C@@]21O)[C@H]1CCC2C3CCC4C[C@H](O)CC[C@]4(C)C3C[C@H](C)[C@@]21O |  | MIC |  | Isolate 1 | 0.012 µM |
| COc1ccc2c(Cc3cccc(Br)c3)c3[n+](cc2c1OC)CCc1cc2c(cc1-3)OCO2.[Br-] | Fluconazole-resistant | MIC80 | broth dilution | Clinical isolate | 32 µg/mL |
| O=c1ccc2cc(O)c(O)cc2o1 |  | MIC |  | ATCC 14053 | 500 µg/mL |
| O=c1[nH]sc2cc(F)ccc12 |  | MIC |  | ATCC 2091 | 15 µg/mL |
| Nc1nc(=O)n([C@H]2CS[C@@H](CO)O2)cc1F |  | MIC90 |  | 85 strains (fluconazole-resistant) | 1 µg/mL |
| O=c1ccc2cc(O)ccc2o1 |  | MIC |  | ATCC 14053 | 500 µg/mL |
| COc1cccc(C(=O)/C=C/c2cc3ccccc3cc2OC)c1 |  | MIC |  | ATCC 10231 | >50 µg/mL |
| C=CCc1ccc(O)c(-c2ccc(O)c(CC=C)c2)c1 |  | MIC | broth dilution | YL 371 | 64 µg/mL |
| Cc1c(N2CCC(n3cccc3)CC2)c(F)cn2c(=O)c(C(=O)O)cc(C3CC3)c12 |  | MIC |  | CCH442 | >100 µg/mL |
| CC(C)(C)C1CCC(CN2C3=NC[C@@H](C4CCCCC4)N3C[C@@H]2CC2CCCCC2)CC1 |  | EC50 |  | ATCC 10231 | 3.5 µg/mL |
| O=C(/C=C/c1cc2ccccc2nc1Cl)c1ccccc1 |  | MIC |  | ATCC 10231 | >50 µg/mL |
| C1CCC(C[C@@H]2CN=C3N2C[C@H](C2CCCCC2)N3CCC23CC4CC(CC(C4)C2)C3)CC1 |  | MIC |  | ATCC 10231 | 10–16 µg/mL |
| O=c1ccc2ccc([N+](=O)[O-])cc2o1 |  | MIC |  | ATCC 14053 | 250 µg/mL |
| CCN1C2=NC[C@H](Cc3ccccc3)N2C[C@H]1C |  | EC50 |  | ATCC 10231 | >250 µg/mL |
| COc1ccc2c(c1OC)C[N+]1(Cc3ccccc3C)CCc3cc4c(cc3C1C2)OCO4.[Br-] | Fluconazole-resistant | MIC80 | broth dilution | Clinical isolate | >64 µg/mL |

The last 5 rows once more:

compound | changes | measure | read by | strain | result
O=C(/C=C/c1cc2ccccc2nc1Cl)c1ccccc1 |  | MIC |  | ATCC 10231 | >50 µg/mL
C1CCC(C[C@@H]2CN=C3N2C[C@H](C2CCCCC2)N3CCC23CC4CC(CC(C4)C2)C3)CC1 |  | MIC |  | ATCC 10231 | 10–16 µg/mL
O=c1ccc2ccc([N+](=O)[O-])cc2o1 |  | MIC |  | ATCC 14053 | 250 µg/mL
CCN1C2=NC[C@H](Cc3ccccc3)N2C[C@H]1C |  | EC50 |  | ATCC 10231 | >250 µg/mL
COc1ccc2c(c1OC)C[N+]1(Cc3ccccc3C)CCc3cc4c(cc3C1C2)OCO4.[Br-] | Fluconazole-resistant | MIC80 | broth dilution | Clinical isolate | >64 µg/mL

A number after MIC or MFC names an inhibition level or a share of isolates. Neighbouring rows are from separate reports. An empty or dashed field is not shown. ECn is the concentration giving n% inhibition of infection, replication or growth.